ChEMBL document CHEMBL3244321, “Nitramino acids. Synthesis and biological evaluation of 1-nitroproline, 1-nitropipecolic acid, and N-nitrosarcosine” (J Med Chem, 1977)
Active and inactive are the calls of the source.

How the values were obtained:
Assay type in all cases: functional, organism-based
Candida albicans [1] = assay: Antifungal activity against Candida albicans clinical isolate assessed as inhibition of fungal growth up to 100 ug/ml after 16 hrs by spectrophotometer
Summary of the method: (§1)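 Yeast nitrogen base (pH 7.0), with compound at 10, 25, 50 and 100 µg/mL. Incubated 16 h at 37 °C with 150 rpm rotary shaking. Turbidity was read at 600 nm.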

[2] = tested on: Mycolicibacterium smegmatis; assay: Antibacterial activity against Mycobacterium smegmatis H607 assessed as inhibition of bacterial growth up to 100 ug/ml after 22 hrs by spectrophotometer
Summary of the method: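 Sauton synthetic medium, with compound at 10, 25, 50 and 100 µg/mL. Incubated 22 h at 37 °C with rotary shaking at 150 rpm. Growth was measured turbidimetrically at 600 nm.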

Candida albicans [3] = assay: Antifungal activity against Candida albicans ATCC 11651 assessed as inhibition of fungal growth up to 100 ug/ml after 16 hrs by spectrophotometer; summary of the method: as §1
Escherichia coli = assay: Antibacterial activity against Escherichia coli ATCC 25922 assessed as inhibition of bacterial growth at up to 100 ug/ml after 16 hrs by spectrophotometer
Summary of the method: (§2)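 Tested at 10, 25, 50 and 100 µg/mL in Mueller-Hinton broth at 37 °C with rotary shaking at 150 rpm. Incubation was 16 h for E. coli and 7 h for P. aeruginosa. Growth was read turbidimetrically at 600 nm.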

Pseudomonas aeruginosa = assay: Antibacterial activity against Pseudomonas aeruginosa ATCC 27853 assessed as inhibition of bacterial growth at up to 100 ug/ml after 7 hrs by spectrophotometer; summary of the method: as §2

Measured: inhibition

CN(CC(=O)O)[N+](=O)[O-]
inactive: Candida albicans [1] | [2] | Candida albicans [3] | Escherichia coli | Pseudomonas aeruginosa
